Assay results: the supplement of paper PMC6461962

Tests used:
[1] = test system: Pseudomonas fluorescens FW300-N2E2
Procedure, shortened: (§1)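 Washed cells (final OD600 0.02, 80 µL) were added to 384-well plates of serially diluted inorganic ion salts or equimolar nitrilotriacetic acid complexes. Aerobic plates were shaken at 700 rpm at 30 °C, and anaerobic plates were left unshaken. OD600 was read at 24 h (48 h for R2A strain comparisons) and scaled between water and growth-blocking antibiotic controls, dropping wells with precipitate. IC50 came from drc R package fits of at least two biological replicate curves.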

[2] = test system: Rhodanobacter sp. FW104-10B01
Procedure, shortened: as §1

O=P([O-])([O-])F.[Na+].[Na+] [Sodium Fluorophosphate]
Details	IC50 growth inhibition [M]
[1], medium / electron acceptor: N2E2 Glucose/aerobic	< 0.000244
[1], medium / electron acceptor: N2E2 Glucose/aerobic 0.25xMinerals	< 0.000244
[1], medium / electron acceptor: N2E2 Glucose/aerobic (2)	< 0.000244
[1], medium / electron acceptor: N2E2 KB/aerobic	0.0301
[1], medium / electron acceptor: N2E2 LB/aerobic	0.353
[1], medium / electron acceptor: N2E2 LB/aerobic (2)	0.354
[1], medium / electron acceptor: N2E2 LB/nitrate	0.0815
[1], medium / electron acceptor: N2E2 Lactate/aerobic	0.00158
[1], medium / electron acceptor: N2E2 R2A/aerobic	0.0322
[2], medium / electron acceptor: 10B01 R2A/aerobic	0.354
[2], medium / electron acceptor: 10B01 R2A/nitrate	0.0852
